We go through two compounds from PubChem BioAssay AID588742 (Southern Research Specialized Biocontainment Screening …, 2011).

This is a selection; strong and weak results do not stand in their true shares. Entries with a potency or affinity are not part of this list. Active and inactive are the calls of the source. The rule behind the calls is not given here.

The nature of the test: Vero cell cytotoxicity, cytotoxicity control for flavivirus capping enzyme inhibitors (AID 588742). The settings on record: Vero cells viability, cytotoxicity counter-screen; at 40 µM (top of the series). In general terms: The purpose of a counterscreen is to sort out artefacts and off-target activity.
What is called viability is a per cent measure of how many cells are alive, often set against a control. As to `Nc1cccc2ccc([As](=O)(O)O)cc12`, the viability was inactive: 89%.

Regarding `O=[N+]([O-])c1ccc(-c2cc([N+](=O)[O-])c(O)c([N+](=O)[O-])c2)cc1`, the viability was inactive: 94.2%.
